From the supplement of paper PMC9931576
Positions count from the first letter of the chain named. Human monoclonal antibodies against the spike receptor-binding domain (heavy:light variable regions). IC50 against pseudoviruses bearing the spike of naturally observed variants; lower = stronger; >10 µg/ml means not reached at the top dose. No active / inactive call. The stated detection limit is 0.0005 µg/ml; values near or below 0.001 µg/ml lie at the floor of the assay.

B1: BD-494 (protein)
chain 1: EVQLVESGGGLIQPGGSLRLSCAASGFTVSRNYMSWVRQAPGKGLEWVSLIYSGGSTFYADSVKGRFTISRDNSKNTLYLQMNTLRSEDTAVYYCARDLVVYGMDVWGQGTTVTVSS
chain 2: DIQLTQSPSFLSASVGDRVTITCRASQGISSYLAWYQQKPGKAPKLLIYAASTLQVGVPSRFSGSGSGTEFTLTISSLQPEDFATYFCQQLNSYPFTFGPGTKVDIK
B2: BD57-0154 (protein)
chain 1: EEQLLESGGGLVQPGKSLKLSCAASGFTFTNYAINWVRQAPGKGLEWVSFITGSGNTAYYADSVKGRFTISRDNSKNTLFLQMNSLRAEDTAVYYCARHDSPTHSDVLTGPDAFDIWGQGTMVTVSS
chain 2: DIQMTQSPSTLSASVGDRVTITCRASQSISRWLAWYQQRPGKAPKLLIYMASSLEDGVPSRFSGSGSGTEFALTISSLQPEDFATYYCQQYNSFPYTFGQGTKLEIK
B3: BD57-0185 (protein)
chain 1: QVQLQESGPGLVKPSETLSLTCSVSGDSVRSHYWSWIRQPPGKGLEWIGCIYFSGRTNYNPSLESRVTISVDTSKNQVSLRLTSVTAADTAVYYCVTSGPNMMTPGGVIADDAFDIWGQGTMNIVSS
chain 2: DIQMTQSPSSLSASVGDRVTITCRASQSINNYLNWYQQKPGKAPKLLIYAASSLQSGVPSRLSGSGSGTDFTLSISSLQPEDSATYYCQQSYSTPWTFGQGTKVAIK
B4: BD57-0156 (protein)
chain 1: EVQLVESGGGLVQPGGSLRLSCAASGFTFSNYDMHWVRQVPGKGLEWVSVIGTGGDTYYPDSLKGRFTISRENAKTSLYLQMNSLRAGDTAVYYCVRVNYAGELFWYLDLWGRGTLVTVSS
chain 2: DIQMTQSPSSLSASVGDRVTITCRASQSINNYLNWYQQKPGKAPKVLIYSVSKLQSGVPSRFSGSGSGTDYTLTISSLQPEDFATYFCQQSYTSPMYTFGQGTKLEIK
B5: BD57-0174 (protein)
chain 1: QVTLRESGPALVKPTQTLTLTCSFSGFSLSTSGMSVSWIRQPPGEALEWLARIDWDDDTFYSTSLRTRLTISKDTSKNQVVLIMTNMDPVDTATYYCGVWGVIPLLFYFNYWGQGTLVTVSS
chain 2: QSVLTQPPSASETPGQRVTISCSGSSSNIGTETVNWYQQLPGTAPKLLIYNNNQRPSGVPDRFSASKSGTSASLAISGLQSDDESDYYCATWDDTLKGYVFGTGTKVTVL
B6: BD57-0191 (protein)
chain 1: B5 chain 1 with S23T, S37N, F60Y, R66K, I83T, L105V, N110D
chain 2: B5 chain 2 with E32N, T33S, A65G, D82E, S85A, T91A, T95S
B7: BD57-0159 (protein)
chain 1: EVQLVESGGGLVQPGGSLRVSCSASGFTFSRYSMHWVRQTPGKGLQYVSGISGNGDIRDYADSVKGRFTISRDNSKNTLYLQMSSLSAEDTAVYYCVKDVDTAAVTIFENWGQGTLVTVSS
chain 2: DIQMTQSPSSLSASVGDRVTITCRASQRISGYLNWYQQKPGKAPKLLIYGASSLQSGVPSRFSGSGSGTDFTLTISSLQPEDFATYYCQQSYTTPFTFGQGTKLEIK
B8: BD57-0136 (protein)
chain 1: QVTLKESGPVLVKPTETLTLTCTVSGLSLSNMRMGVSWIRQPPGKALEWLAHSSASDDKSYSPSLKTRLTISRGSSKSQVVLTMTNMDPMDTGTYYCAGTFSYFWYDYWGQGTLVTVSS
chain 2: SYVLTQPPSVSLAPGKTARITCETNNIGSKSVHWYRQRPGQAPVLVIYYNNDRPSGIPDRFSGSNSGNTATLTISRVEAGDEADYYCQVWDTSTDHVIFGGGTKLTVL
B9: BD57-0139 (protein)
chain 1: QVTLKESGPVLLKPTETLTLTCTVTKFSLSNARMGVSWIRQPPGRALEWLAHISANDEESYSPALKNRLSISKDTSKSQVVLSMTNMDPVDTATYYCAGTFSISWYDYWGQGTLVTVSS
chain 2: SYVLTQPPSVSVAPGKTARITCGGNNIGSQSVHWYQQKPGQAPVLVIYYDTDRPSGIPERFSGSKSENTATLTIGRVEAGDEADYYCQVWLSKGDLVIFGGGTKLTVL
B10: BD57-0140 (protein)
chain 1: EVQLVESGGGLVQPGGSLRLSCAASGFTFSNYDMHWVRQVTGKGLEWVALIGTAGDTYYPDTVKGRFTISRENAKNSLYLQMNSLRAGDTAVYYCARVSYDSSGYFYWFDLWGQGTLVTVSS
chain 2: DIQMTQSPSSLSASVGDRVTITCRASQRISTYLNWYQQKPGKAPKLLIYVASTLQSGVPSRFSGSGSGTDFTLTISSLQPEDFATYYCQQSYNTPPITFGQGTRLEIK
B11: BD57-0189 (protein)
chain 1: QVTLRESGPALVKPTQTLTLTCTFSGFSLNTSGMSVSWIRQPPGKALEWLARIDWDDDKYHITSLRTRLTISKDTSKNQVVLTMTNMDPVDSATYYCARTRIGGYDYYFDYWGLGTLVTVSS
chain 2: QSVLTQPPSVSAAPGQKVTISCSGSTSNIGNYYVSWYQHLPGTAPKLLIYDNNKRPSGIPDRFSGSKSGTSATLGITGLQTGDEADYYCGTWDSSLDSGVFGGGTRLTVL
B12: BD57-0148 (protein)
chain 1: QGQLVQSGAEVKKPGASVKVSCEAPAYTSTGYYMHWLRQAPRQGLEWMGWMHPTTGGTDYAQKFRGRVTMTSDTSISTGYLELSSLTSDDTAVYYCAMTSSNWYAGGVKWGQGTLVTVSS
chain 2: DIQMTQSPSSLSAFLGDRITITCQASQGITNYLNWYQQKPGKAPKLLIYDASNLETGVPSRFSGSGSGTYFTLTISSLQPEDIATYYCQQYNNLPWTFGQGTKVEIK
B13: BD57-0146 (protein)
chain 1: QVQLVQSGPEVKTPGASVRVSCQASGDTFSTSYIHWVRQAPGQGPEWMGIINPSGGSTTYAQRFQGRVTMTGDMSSTTVYMELRGLTSDDTGVYYCARGGFVPNIRWPQDYWGQGTLITVSS
chain 2: DIQMTQSPSTLSAFVGDRVTITCRASQSIGRYLAWYQQKPGKAPHLLVYQASTLETGVPSRFSGSGSGTQFTLTISSLQPEDFATYYCQQYDSFSWTFGQGTKVEIK

Columns and labels:
Experiment in all cases: pseudovirus neutralization IC50; higher = weaker neutralization
[1] = target: SARS-CoV-2 Omicron BA.1 spike pseudovirus
Protocol: (§1)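 Single-round VSV luciferase pseudovirus mixed with antibody dilutions for 1 h and put on Huh-7 cells for about a day; IC50 from the dose curve.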

[2] = target: SARS-CoV-2 Omicron BA.2 spike pseudovirus
Protocol: as §1

[3] = target: SARS-CoV-2 Omicron BA.2.75 spike pseudovirus
Protocol: as §1

[4] = target: SARS-CoV-2 Omicron BA.5 spike pseudovirus
Protocol: as §1

[5] = target: SARS-CoV-2 Omicron BQ.1.1 spike pseudovirus
Protocol: as §1

[6] = target: SARS-CoV-2 Omicron XBB spike pseudovirus
Protocol: as §1

[7] = target: SARS-CoV-2 early D614G spike pseudovirus
Protocol: as §1

| Binder | pseudovirus neutralization IC50 [1] | pseudovirus neutralization IC50 [2] | pseudovirus neutralization IC50 [3] | pseudovirus neutralization IC50 [4] | pseudovirus neutralization IC50 [5] | pseudovirus neutralization IC50 [6] | pseudovirus neutralization IC50 [7] |
| --- | --- | --- | --- | --- | --- | --- | --- |
| B1 | > 10 µg/mL | > 10 µg/mL | > 10 µg/mL | > 10 µg/mL | > 10 µg/mL | > 10 µg/mL | 0.343 µg/mL |
| B2 | 6.5 µg/mL | 4.15 µg/mL | 4.37 µg/mL | 3.77 µg/mL | 4.07 µg/mL | 3.18 µg/mL | 0.445 µg/mL |
| B3 | 0.0651 µg/mL | 0.0547 µg/mL | 0.0229 µg/mL | 0.0786 µg/mL | > 10 µg/mL | 2.22 µg/mL | 0.0178 µg/mL |
| B4 | > 10 µg/mL | > 10 µg/mL | > 10 µg/mL | > 10 µg/mL | > 10 µg/mL | > 10 µg/mL | > 10 µg/mL |
| B5 | > 10 µg/mL | 0.0366 µg/mL | 2.78 µg/mL | 0.0364 µg/mL | > 10 µg/mL | > 10 µg/mL | 0.0529 µg/mL |
| B6 | 3.23 µg/mL | 0.0202 µg/mL | 3.64 µg/mL | 0.0218 µg/mL | > 10 µg/mL | 4.14 µg/mL | 0.0288 µg/mL |
| B7 | > 10 µg/mL | > 10 µg/mL | > 10 µg/mL | > 10 µg/mL | > 10 µg/mL | > 10 µg/mL | > 10 µg/mL |
| B8 | 0.0712 µg/mL | 0.0735 µg/mL | 0.0924 µg/mL | 0.225 µg/mL | > 10 µg/mL | > 10 µg/mL | 0.0918 µg/mL |
| B9 | 0.0984 µg/mL | 0.149 µg/mL | 0.0852 µg/mL | 0.469 µg/mL | > 10 µg/mL | > 10 µg/mL | 0.0287 µg/mL |
| B10 | > 10 µg/mL | > 10 µg/mL | > 10 µg/mL | > 10 µg/mL | > 10 µg/mL | > 10 µg/mL | > 10 µg/mL |
| B11 | > 10 µg/mL | 0.178 µg/mL | > 10 µg/mL | 0.0735 µg/mL | > 10 µg/mL | > 10 µg/mL | 2.2 µg/mL |
| B12 | 4.44 µg/mL | 4.57 µg/mL | 4.89 µg/mL | 4.23 µg/mL | > 10 µg/mL | > 10 µg/mL | > 10 µg/mL |
| B13 | 1.45 µg/mL | 2.09 µg/mL | 1.86 µg/mL | 3.86 µg/mL | 5.63 µg/mL | 3.93 µg/mL | 3.7 µg/mL |
